Key:
[1] = system: Eastern Equine Encephalitis (EEEV)
SARS-CoV-2 = assay: Viral replication of SARS-CoV-2

CCCC[C@H](NC(=O)[C@H](CC(C)C)NC(=O)[C@H](Cc1ccccc1)NC(=O)[C@@H](NC(=O)[C@H](Cc1ccccc1)NC(=O)[C@@H]1CCCN1C(=O)[C@H](CCCCN)NC(=O)[C@H](CC(N)=O)NC(=O)[C@H](Cc1ccccc1)NC(=O)[C@H](CCCCN)NC(=O)[C@@H](NC(C)=O)C(C)C)C(C)C)C(=O)N[C@H](C(=O)N[C@@H](CCC(=O)O)C(=O)N[C@@H](CCC(N)=O)C(=O)N[C@@H](CC(N)=O)C(=O)N[C@H](C(=O)N[C@@H](CCCCN)C(N)=O)[C@@H](C)O)[C@@H](C)CC [SP163M, Ac-VKFNKPFVFL[Nle]IEQNTK-NH2]
viral replication of EEEV [1]: significantly reduce viral replication | viral replication of SARS-CoV-2 (SARS-CoV-2): suppressed viral replication

— patent US20250353898A1, “SERPIN PEPTIDE DERIVATIVES AND METHODS OF USING THE SAME” (priority 2022, published 2025)
